Anti-infective test results gathered from many reports (values: NIAID ChemDB through PubChem).

Blank or dashed fields: not listed here. MIC bound: limit read from a one-dose screen. ICn is the concentration giving n% inhibition. Percent inhibition refers to the dose given; in toxicity tests it is the harm to the cells. Lines come from different laboratories, so protocols vary.

SMILES	kind	agent	method	target	dose	strain or isolate	read-out	value
CC(=O)c1cnc(N)nc1C	culture	Mycobacterium tuberculosis	-	-	-	H37Rv	MIC	>100 µg/mL
CSc1ccc(-c2cncc(N3CCN(c4ccc(C)c(C)c4)CC3)n2)cc1	target	Cytomegalovirus	-	UL97 kinase	-	-	IC50	<10 µM
Fc1ccc(N2CCCCC2)c(NC(=S)c2ccncc2)c1	host protein	-	kinase activity	PBK	10 µM	-	inhibition	9%
NC(=S)N/N=C/C1CNCCN1	culture	Mycobacterium tuberculosis	BACTEC	-	-	H37Rv	MIC bound	>12.5 µg/mL
COc1ccc(N2CCN(c3cncc(-c4cccc(C)c4C)n3)CC2)cc1OC	target	Cytomegalovirus	-	UL97 kinase	-	-	IC50	<100 µM
S=C(Nc1ccccc1)c1ccccc1	culture	Mycobacterium tuberculosis	-	-	-	H37Rv	MIC	25 µg/mL
NC(=O)C1C2CCC(O2)C1C(=O)O	culture	Mycobacterium tuberculosis	BACTEC	-	12.5 µg/mL	H37Rv	inhibition	0%
COC(=O)/C(O)=C(\O)C(=O)OC	culture	Mycobacterium tuberculosis	-	-	-	H37Rv	MIC	100 µg/mL
COc1ccc(N2CCN(c3cncc(-c4csc5ccccc45)n3)CC2)cc1	target	Cytomegalovirus	-	UL97 kinase	-	-	IC50	<10 µM
O=C(O)C(O)c1ccccc1	culture	Mycobacterium tuberculosis	-	-	-	H37Rv	MIC	50 µg/mL
O=C1OC(c2ccccc2)=N/C1=C\c1cc([N+](=O)[O-])ccc1Cl	culture	Mycobacterium tuberculosis	BACTEC	-	-	H37Rv	MIC bound	>12.5 µg/mL
COc1ccc2cc(-c3cncc(N4CCN(c5ccc(C(C)=O)cc5)CC4)n3)ccc2c1	target	Cytomegalovirus	-	UL97 kinase	1 µM	-	inhibition	<50%
c1ccc(NCCOc2ccccc2)cc1	culture	Mycobacterium tuberculosis	-	-	-	H37Rv	MIC	50 µg/mL
Cc1nc2ccc(N(C)C)cc2c2c1Cc1c(C)nc3ccc(N(C)C)cc3c1O2	culture	Mycobacterium tuberculosis	BACTEC	-	12.5 µg/mL	H37Rv	inhibition	-35%
Fc1ccc(N2CCN(c3cncc(-c4ccc5ccccc5c4)n3)CC2)c(F)c1	target	Cytomegalovirus	-	UL97 kinase	1 µM	-	inhibition	<50%
O=S1(=O)OCOS(=O)(=O)OCO1	culture	Mycobacterium tuberculosis	BACTEC	-	12.5 µg/mL	H37Rv	inhibition	34%
Nc1[nH]c(=S)[nH]c(=O)c1-c1ccccc1	culture	Mycobacterium tuberculosis	-	-	-	H37Rv	MIC	>100 µg/mL
Oc1ccc(Br)cc1-c1nc2cc(Cl)c(Cl)cc2nc1-c1cc(Br)ccc1O	culture	Mycobacterium tuberculosis	BACTEC	-	6.25 µg/mL	H37Rv	inhibition	99%
Oc1cccc(-c2cncc(N3CCN(c4ccncc4)CC3)n2)c1	target	Cytomegalovirus	-	UL97 kinase	-	-	IC50	<10 µM
O=C(CN1CCOCC1)NC1=Nc2ncccc2C(=O)NN1	culture	Mycobacterium tuberculosis	resazurin	-	6.25 µg/mL	H37Rv	inhibition	-29%
O=P(O)(c1ccccc1)c1ccccc1	culture	Mycobacterium tuberculosis	-	-	-	H37Rv	MIC	>100 µg/mL

Repeating the first 2 entries:

SMILES | kind | agent | method | target | dose | strain or isolate | read-out | value
CC(=O)c1cnc(N)nc1C | culture | Mycobacterium tuberculosis | - | - | - | H37Rv | MIC | >100 µg/mL
CSc1ccc(-c2cncc(N3CCN(c4ccc(C)c(C)c4)CC3)n2)cc1 | target | Cytomegalovirus | - | UL97 kinase | - | - | IC50 | <10 µM